Anti-infective test results gathered from many reports (values: NIAID ChemDB through PubChem).

Common to all: growth or infection tests

Rows are shuffled and stem from different studies. Fold resistance has wild type as its base. A number after MIC or MFC names an inhibition level or a share of isolates. Percent inhibition refers to the dose given; in toxicity tests it is the harm to the cells. ECn: concentration that inhibits the pathogen or its effect by n%. An empty or dashed field is not shown.

compound | method | strain | changes | dose | conditions | cells | species | endpoint | value
Fc1ccccc1-c1nc2ccn(Cc3ccc(-c4ccc(C(F)(F)F)cc4C(F)(F)F)nn3)cc-2n1 | luciferase | Con1 | Y448H Y452H | - | - | 1C | Hepatitis C virus | fold resistance | 221
Nc1nccc2c1ncn2C[C@@H](CO)OCP(=O)(O)O | plaque count | OKA (TK+) | - | - | - | HEL | Varicella zoster virus | EC50 | 0.13 µM
CC(C)OC(=O)[C@H](C)N[P@](=O)(OC[C@H]1O[C@@](C#N)(c2ccc3c(N)ncnn23)[C@](C)(O)[C@@H]1OC(=O)C(C)C)Oc1ccccc1 | luciferase | 1b Con1 | S282T | - | - | 1C | Hepatitis C virus | fold resistance | 39
CC[C@@]1(O)C(=O)OCc2c1cc1n(c2=O)Cc2cc3cc(O)ccc3nc2-1 | - | JHY6-1C | - | - | - | - | Saccharomyces cerevisiae | MIC | >100 µg/mL
C[C@@]1(O)[C@@H](CO)O[C@@H](n2ccc(=O)[nH]c2=O)[C@@H]1O | plaque count | Niigata-1 | - | - | - | VERO | Measles virus | EC50 | >500 µg/mL
FC(F)(F)c1cccc([Se][Se]c2cccc(C(F)(F)F)c2)c1 | broth dilution | - | - | - | - | - | Candida dubliniensis | MIC | >64 µg/mL
Nc1ncnc2c1ncn2[C@H]1[C@H](O)[C@H](O)[C@]2(CO)O[C@H]12 | plaque count | Niigata-1 | - | - | - | VERO | Measles virus | EC50 | 0.84 µg/mL
CN(C)[C@@H]1C(=O)C(C(N)=O)=C(O)[C@@]2(O)C(=O)C3=C(O)c4c(O)c(NC(=O)CNC(F)(F)F)cc(F)c4C[C@H]3C[C@@H]12 | agar diffusion | 106-49619 | - | - | - | - | Streptococcus pneumoniae | EC50 | 0.5 µg/mL
Cc1cn([C@H]2C[C@H](N=[N+]=[N-])[C@@H](COP(=O)(O)OC[C@H]3OC(O)[C@H](O)[C@@H](O)[C@@H]3O)O2)c(=O)[nH]c1=O | RT activity | LAV-Bru | - | 5 µM | 14 d | U-937 | HIV-1 | inhibition | 0%
Nc1ncnc2c1ncn2CCOCP(=O)(O)O | - | - | - | 1 µM | - | P3HR-1 | Epstein-Barr virus | inhibition | 4%
Nc1nccc2c1ncn2[C@@H]1O[C@H](CO)[C@@H](O)[C@H]1O | plaque count | Niigata-1 | - | - | - | VERO | Measles virus | EC50 | 24 µg/mL
Nc1ncnc2c1ncn2C[C@H](CO)OCP(=O)(O)O | virus yield | WT 300 (TYPE 5) | - | - | - | - | Adenovirus | EC90 | 0.1 µg/mL
CC1COc2c(N3CCN(C)CC3)c(F)cc3c(=O)c(C(=O)O)cn1c23 | - | 30 strains | - | - | - | - | Streptococcus pneumoniae | MIC90 | 2 µg/mL
O=c1[nH]c(=O)n([C@H]2C[C@H](O)[C@@H](CO)O2)cc1-c1ccc(Cl)s1 | plaque count | YS/R (TK-) | - | - | - | HEL | Varicella zoster virus | EC50 | >58 µM
O=C1N(Cc2ccc(CO)cc2)[C@H](Cc2ccccc2)[C@H](O)[C@@H](O)[C@@H](Cc2ccccc2)N1Cc1ccc(CO)cc1 | p24 | G clinical isolate | - | 0.16 µM | - | PBMC | HIV-1 | inhibition | 90%
OCCOC(CO)n1cnc2cc(Cl)c(Cl)cc21 | cytopathic effect | TYPE 3 | - | - | - | HeLa | Parainfluenza virus | EC50 | >200 µg/mL
CC[C@@]1(O)C(=O)OCc2c1cc1n(c2=O)Cc2cc3c(N)cccc3nc2-1 | - | JHY6-1C | - | - | - | - | Saccharomyces cerevisiae | MIC | >100 µg/mL
Nc1nc2c(ncn2CCOCP(=O)(O)O)c(=O)[nH]1 | neutral red | Chicago | - | - | - | - | Measles virus | EC50 | <0.03 µg/mL
O[C@H]1[C@@H](O)COC(n2cnc3cc(Cl)c(Cl)cc32)[C@@H]1O | cytopathic effect | TYPE 3 | - | - | - | HeLa | Parainfluenza virus | EC50 | >400 µg/mL
COc1ccc2c(O[C@@H]3C[C@H]4C(=O)N[C@]5(C(=O)O)C[C@H]5/C=C\CCCCC[C@H](NC(=O)OC5CCCC5)C(=O)N4C3)cc(-c3csc(NC(C)C)n3)nc2c1 | luciferase | Con1 | A156T | - | - | 1C | Hepatitis C virus | fold resistance | >410
Nc1ccn(C[C@H]2COP(=O)(O)CO2)c(=O)n1 | plaque count | 07/1 (TK-) | - | - | - | HEL | Varicella zoster virus | EC50 | 1.24 µM
C#CC[C@@H](C(=O)N[C@H](/C=C/C(=O)OCC)C[C@@H]1CCNC1=O)n1cccc(NC(=O)c2cc(C)on2)c1=O | cytopathic effect / XTT | Serotype 59 | - | 0.044 µM | - | H1-HELA | Rhinovirus | inhibition | 90%
OC[C@H]1O[C@@H](n2cnc3cc(Cl)c(Cl)cc32)[C@H](O)[C@@H]1O | cytopathic effect | TYPE 3 | - | - | - | HeLa | Parainfluenza virus | EC50 | >10 µg/mL
Cc1cn([C@H]2C[C@H](N=[N+]=[N-])[C@@H](COP(=O)(O)OC[C@H]3OC(O)[C@@H](O)[C@@H](O)[C@@H]3O)O2)c(=O)[nH]c1=O | RT activity | LAV-Bru | - | 25 µM | 14 d | U-937 | HIV-1 | inhibition | 0%
Nc1ncnc2c1ncn2CCOCP(=O)(O)O | cytopathic effect | Oka CF1603-resistant | - | - | - | HEL | Varicella zoster virus | EC50 | 21.7 µM
NC12CC3CC(CC(C3)C1)C2 | plaque count | H1N1 SUITA/1/89 | - | - | - | MDCK | Influenza A virus | EC50 | >50 µg/mL
CC[C@@]1(O)C(=O)OCc2c1cc1n(c2=O)Cc2cc3c(CN(C)C)c(O)ccc3nc2-1 | - | Mutant ΔERG6 ΔTOP1 | - | - | - | - | Saccharomyces cerevisiae | MIC | >1000 µg/mL
Nc1nccc2c1ncn2[C@@H]1C[C@H](CO)[C@@H](O)[C@H]1O | plaque count | Niigata-1 | - | - | - | VERO | Measles virus | EC50 | 2.2 µg/mL
CCc1c2c(nc3ccc(O)cc13)-c1cc3c(c(=O)n1C2)COC(=O)[C@@]3(CC)OC(=O)CN | - | Mutant ΔERG6 ΔTOP1 | - | - | - | - | Saccharomyces cerevisiae | MIC | >100 µg/mL
Nc1ncnc2c1ncn2[C@@H]1O[C@H](CO)[C@H]1CO | plaque count | 07/1 (TK-) | - | - | - | HEL | Varicella zoster virus | EC50 | 3.9 µM
Nc1ncnc2c1ncn2C[C@H](O)CO | - | - | - | 0.01 µM | - | P3HR-1 | Epstein-Barr virus | inhibition | 4%
CC[C@@]1(OC(=O)CN)C(=O)OCc2c1cc1n(c2=O)Cc2cc3cc4c(cc3nc2-1)OCO4 | - | JHY6-1C | - | - | - | - | Saccharomyces cerevisiae | MIC | 3.12 µg/mL
OC[C@H]1O[C@@H](n2cnc3cc(Cl)c(Cl)cc32)[C@@H](O)[C@H]1O | cytopathic effect | - | - | - | - | HeLa | Sindbis virus | EC50 | >100 µg/mL
c1ccc([Se][Se]c2ccccc2)cc1 | broth dilution | ATCC 66035 | - | - | - | - | Candida lusitaniae | MIC | 4 µg/mL
Nc1nc2c(ncn2COCOCP(=O)(O)O)c(=O)[nH]1 | virus yield | 14798 (TYPE 3) | - | - | - | - | Parainfluenza virus | EC90 | 40 µg/mL
O[C@@H]1CC(n2cnc3cc(Cl)c(Cl)cc32)OC[C@@H]1O | cytopathic effect | TYPE 3 | - | - | - | HeLa | Parainfluenza virus | EC50 | >150 µg/mL
CCC(CCC(C)C1CCC2C3C[C@@H](O)[C@@]4(O)C[C@@H](O)CCC4(C)C3CCC12C)C(C)C | antigen | - | - | 100 µg/mL | - | HepG2 2.2.15 | Hepatitis B virus | inhibition | 35.5%
OC[C@H]1O[C@@H](n2cnc3cc(Cl)c(Cl)cc32)[C@@H](O)[C@@H]1O | cytopathic effect | - | - | - | - | HeLa | Sindbis virus | EC50 | >200 µg/mL
Nc1cc2[nH]cnc2c(=O)[nH]1 | plaque count | Kitaken-1 | - | - | - | VERO | Measles virus | EC50 | 0.83 µg/mL
CC(C)(CO)C(=O)SCCOP(=O)(NCc1ccccc1)OC[C@H]1O[C@@H](n2cnc3c(=O)[nH]c(N)nc32)[C@](C)(O)[C@@H]1O | replicon | GT1a | Q30E | - | - | Replicon cells | Hepatitis C virus | fold resistance | 1.11
OCCOC(CCO)n1cnc2cc(Cl)c(Cl)cc21 | cytopathic effect | TYPE 1 | - | - | - | HeLa | Reovirus | EC50 | >100 µg/mL

A second listing of 5 rows from above:

| compound | method | strain | changes | dose | conditions | cells | species | endpoint | value |
|---|---|---|---|---|---|---|---|---|---|
| Nc1ncnc2c1ncn2C[C@H](O)CO | - | - | - | 0.01 µM | - | P3HR-1 | Epstein-Barr virus | inhibition | 4% |
| CC(C)(CO)C(=O)SCCOP(=O)(NCc1ccccc1)OC[C@H]1O[C@@H](n2cnc3c(=O)[nH]c(N)nc32)[C@](C)(O)[C@@H]1O | replicon | GT1a | Q30E | - | - | Replicon cells | Hepatitis C virus | fold resistance | 1.11 |
| Nc1nccc2c1ncn2[C@@H]1C[C@H](CO)[C@@H](O)[C@H]1O | plaque count | Niigata-1 | - | - | - | VERO | Measles virus | EC50 | 2.2 µg/mL |
| O[C@@H]1CC(n2cnc3cc(Cl)c(Cl)cc32)OC[C@@H]1O | cytopathic effect | TYPE 3 | - | - | - | HeLa | Parainfluenza virus | EC50 | >150 µg/mL |
| OC[C@H]1O[C@@H](n2cnc3cc(Cl)c(Cl)cc32)[C@@H](O)[C@H]1O | cytopathic effect | - | - | - | - | HeLa | Sindbis virus | EC50 | >100 µg/mL |